Measurements: patent US9625458B2, “Biosensor” (priority 2002, dated 2017)

Assay: Fluorescence emission spectra without and with saturating ligand (wavelength shift, ΔIstd, ΔRmax)
Settings: for λmax,apo (nm) / λmax,sat (nm): emission maximum; for λmax,apo (nm): absence of ligand; for λmax,sat (nm): saturating ligand (ligand column); for ΔIstd: standard intensity change; for ΔIstd / ΔRmax: unbound vs ligand-saturated; for ΔRmax: standard ratiometric change
Method in brief: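 Emission spectra of bPBP–fluorophore conjugates (50–1000 nM protein, 25 °C, stirred) recorded without and with saturating ligand, using fluorophore-specific excitation. Wavelength shift, ΔIstd (intensity change at the mid-point wavelength) and ΔRmax (maximal ratiometric change over enumerated band pairs, 2 nm steps, 10 nm width) derived.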

Molecule | λmax,apo (nm) | λmax,sat (nm) | ΔIstd | ΔRmax
Glu/Asp BP A207C NBD (conjugate, UniProt P37902 23-302, looked up, variant A207C, NBD dye conjugate) Glutamate/aspartate import …: DDAAPAAGSTLDKIAKNGVIVVGHRESSVPFSYYDNQQKVVGYSQDYSNAIVEAVKKKLNKPDLQVKLIPITSQNRIPLLQNGTFDFECGSTTNNVERQKQAAFSDTIFVVGTRLLTKKGGDIKDFANLKDKAVVVTSGTTSEVLLNKLNEEQKMNMRIISAKDHGDSFRTLESGRAVAFMMDDCLLAGERAKAKKPDNWEIVGKPQSQEAYGCMLRKDDPQFKKLMDDTIAQVQTSGEAEKWFDKWFKNPIPPKNLNMNFELSDEMKALFKEPNDKALN | 529 | 542 | 0.05 | 2.53
Glu/Asp BP A210C JPW4039 (conjugate, UniProt P37902 23-302, looked up, variant A210C, JPW4039 dye label) Glutamate/aspartate import …: DDAAPAAGSTLDKIAKNGVIVVGHRESSVPFSYYDNQQKVVGYSQDYSNAIVEAVKKKLNKPDLQVKLIPITSQNRIPLLQNGTFDFECGSTTNNVERQKQAAFSDTIFVVGTRLLTKKGGDIKDFANLKDKAVVVTSGTTSEVLLNKLNEEQKMNMRIISAKDHGDSFRTLESGRAVAFMMDDALLCGERAKAKKPDNWEIVGKPQSQEAYGCMLRKDDPQFKKLMDDTIAQVQTSGEAEKWFDKWFKNPIPPKNLNMNFELSDEMKALFKEPNDKALN | 593 | 594 | 0.08 | 0.26
Glu/Asp BP A210C JPW4042 (conjugate, UniProt P37902 23-302, looked up, variant A210C, JPW4042 dye conjugate) Glutamate/aspartate import …: DDAAPAAGSTLDKIAKNGVIVVGHRESSVPFSYYDNQQKVVGYSQDYSNAIVEAVKKKLNKPDLQVKLIPITSQNRIPLLQNGTFDFECGSTTNNVERQKQAAFSDTIFVVGTRLLTKKGGDIKDFANLKDKAVVVTSGTTSEVLLNKLNEEQKMNMRIISAKDHGDSFRTLESGRAVAFMMDDALLCGERAKAKKPDNWEIVGKPQSQEAYGCMLRKDDPQFKKLMDDTIAQVQTSGEAEKWFDKWFKNPIPPKNLNMNFELSDEMKALFKEPNDKALN | 648 | 645 | 0.11 | 0.79
Glu/Asp BP A210C JPW4045 (conjugate, UniProt P37902 23-302, looked up, variant A210C, JPW4045 label) Glutamate/aspartate import …: DDAAPAAGSTLDKIAKNGVIVVGHRESSVPFSYYDNQQKVVGYSQDYSNAIVEAVKKKLNKPDLQVKLIPITSQNRIPLLQNGTFDFECGSTTNNVERQKQAAFSDTIFVVGTRLLTKKGGDIKDFANLKDKAVVVTSGTTSEVLLNKLNEEQKMNMRIISAKDHGDSFRTLESGRAVAFMMDDALLCGERAKAKKPDNWEIVGKPQSQEAYGCMLRKDDPQFKKLMDDTIAQVQTSGEAEKWFDKWFKNPIPPKNLNMNFELSDEMKALFKEPNDKALN | 647 | 650 | 0.09 | 0.71
arabinose BP D257C Acrylodan (conjugate, UniProt P02924 24-329, looked up, variant D257C, acrylodan label) L-arabinose-binding …: ENLKLGFLVKQPEEPWFQTEWKFADKAGKDLGFEVIKIAVPDGEKTLNAIDSLAASGAKGFVICTPDPKLGSAIVAKARGYDMKVIAVDDQFVNAKGKPMDTVPLVMMAATKIGERQGQELYKEMQKRGWDVKESAVMAITANELDTARRRTTGSMDALKAAGFPEKQIYQVPTKSNDIPGAFDAANSMLVQHPEVKHWLIVGMNDSTVLGGVRATEGQGFKAADIIGIGINGVDAVSELSKAQATGFYGSLLPSPCVHGYKSSEMLYNWVAKDVEPPKFTEVTDVVLITRDNFKEELEKKGLGGK | 495 | 495 | 0.26 | 1.66
Glu/Asp BP A210C Acrylodan (conjugate, UniProt P37902 23-302, looked up, variant A210C, acrylodan label) Glutamate/aspartate import …: DDAAPAAGSTLDKIAKNGVIVVGHRESSVPFSYYDNQQKVVGYSQDYSNAIVEAVKKKLNKPDLQVKLIPITSQNRIPLLQNGTFDFECGSTTNNVERQKQAAFSDTIFVVGTRLLTKKGGDIKDFANLKDKAVVVTSGTTSEVLLNKLNEEQKMNMRIISAKDHGDSFRTLESGRAVAFMMDDALLCGERAKAKKPDNWEIVGKPQSQEAYGCMLRKDDPQFKKLMDDTIAQVQTSGEAEKWFDKWFKNPIPPKNLNMNFELSDEMKALFKEPNDKALN | 497 | 496 | 0.09 | 0.40
Glu/Asp BP A210C Fluorescein (conjugate, UniProt P37902 23-302, looked up, variant A210C, fluorescein conjugate) Glutamate/aspartate import …: DDAAPAAGSTLDKIAKNGVIVVGHRESSVPFSYYDNQQKVVGYSQDYSNAIVEAVKKKLNKPDLQVKLIPITSQNRIPLLQNGTFDFECGSTTNNVERQKQAAFSDTIFVVGTRLLTKKGGDIKDFANLKDKAVVVTSGTTSEVLLNKLNEEQKMNMRIISAKDHGDSFRTLESGRAVAFMMDDALLCGERAKAKKPDNWEIVGKPQSQEAYGCMLRKDDPQFKKLMDDTIAQVQTSGEAEKWFDKWFKNPIPPKNLNMNFELSDEMKALFKEPNDKALN | 522 | 522 | 0.02 | 0.14
Glu/Asp BP A210C NBD (conjugate, UniProt P37902 23-302, looked up, variant A210C, NBD conjugate) Glutamate/aspartate import …: DDAAPAAGSTLDKIAKNGVIVVGHRESSVPFSYYDNQQKVVGYSQDYSNAIVEAVKKKLNKPDLQVKLIPITSQNRIPLLQNGTFDFECGSTTNNVERQKQAAFSDTIFVVGTRLLTKKGGDIKDFANLKDKAVVVTSGTTSEVLLNKLNEEQKMNMRIISAKDHGDSFRTLESGRAVAFMMDDALLCGERAKAKKPDNWEIVGKPQSQEAYGCMLRKDDPQFKKLMDDTIAQVQTSGEAEKWFDKWFKNPIPPKNLNMNFELSDEMKALFKEPNDKALN | 543 | 542 | 0.02 | 0.30
Glu/Asp BP E119C JPW4039 (conjugate, UniProt P37902 23-302, looked up, variant E119C, JPW4039 dye conjugate) Glutamate/aspartate import …: DDAAPAAGSTLDKIAKNGVIVVGHRESSVPFSYYDNQQKVVGYSQDYSNAIVEAVKKKLNKPDLQVKLIPITSQNRIPLLQNGTFDFECGSTTNNVCRQKQAAFSDTIFVVGTRLLTKKGGDIKDFANLKDKAVVVTSGTTSEVLLNKLNEEQKMNMRIISAKDHGDSFRTLESGRAVAFMMDDALLAGERAKAKKPDNWEIVGKPQSQEAYGCMLRKDDPQFKKLMDDTIAQVQTSGEAEKWFDKWFKNPIPPKNLNMNFELSDEMKALFKEPNDKALN | 593 | 594 | 0.12 | 0.34
Glu/Asp BP E119C JPW4045 (conjugate, UniProt P37902 23-302, looked up, variant E119C, JPW4045 dye label) Glutamate/aspartate import …: DDAAPAAGSTLDKIAKNGVIVVGHRESSVPFSYYDNQQKVVGYSQDYSNAIVEAVKKKLNKPDLQVKLIPITSQNRIPLLQNGTFDFECGSTTNNVCRQKQAAFSDTIFVVGTRLLTKKGGDIKDFANLKDKAVVVTSGTTSEVLLNKLNEEQKMNMRIISAKDHGDSFRTLESGRAVAFMMDDALLAGERAKAKKPDNWEIVGKPQSQEAYGCMLRKDDPQFKKLMDDTIAQVQTSGEAEKWFDKWFKNPIPPKNLNMNFELSDEMKALFKEPNDKALN | 649 | 644 | 0.08 | 1.73
Glu/Asp BP E119C Acrylodan (conjugate, UniProt P37902 23-302, looked up, variant E119C, acrylodan conjugate) Glutamate/aspartate import …: DDAAPAAGSTLDKIAKNGVIVVGHRESSVPFSYYDNQQKVVGYSQDYSNAIVEAVKKKLNKPDLQVKLIPITSQNRIPLLQNGTFDFECGSTTNNVCRQKQAAFSDTIFVVGTRLLTKKGGDIKDFANLKDKAVVVTSGTTSEVLLNKLNEEQKMNMRIISAKDHGDSFRTLESGRAVAFMMDDALLAGERAKAKKPDNWEIVGKPQSQEAYGCMLRKDDPQFKKLMDDTIAQVQTSGEAEKWFDKWFKNPIPPKNLNMNFELSDEMKALFKEPNDKALN | 498 | 497 | 0.11 | 0.65
Glu/Asp BP E119C Fluorescein (conjugate, UniProt P37902 23-302, looked up, variant E119C, fluorescein conjugate) Glutamate/aspartate import …: DDAAPAAGSTLDKIAKNGVIVVGHRESSVPFSYYDNQQKVVGYSQDYSNAIVEAVKKKLNKPDLQVKLIPITSQNRIPLLQNGTFDFECGSTTNNVCRQKQAAFSDTIFVVGTRLLTKKGGDIKDFANLKDKAVVVTSGTTSEVLLNKLNEEQKMNMRIISAKDHGDSFRTLESGRAVAFMMDDALLAGERAKAKKPDNWEIVGKPQSQEAYGCMLRKDDPQFKKLMDDTIAQVQTSGEAEKWFDKWFKNPIPPKNLNMNFELSDEMKALFKEPNDKALN | 523 | 523 | 0.05 | 0.09
Glu/Asp BP E119C NBD (conjugate, UniProt P37902 23-302, looked up, variant E119C, NBD dye conjugate) Glutamate/aspartate import …: DDAAPAAGSTLDKIAKNGVIVVGHRESSVPFSYYDNQQKVVGYSQDYSNAIVEAVKKKLNKPDLQVKLIPITSQNRIPLLQNGTFDFECGSTTNNVCRQKQAAFSDTIFVVGTRLLTKKGGDIKDFANLKDKAVVVTSGTTSEVLLNKLNEEQKMNMRIISAKDHGDSFRTLESGRAVAFMMDDALLAGERAKAKKPDNWEIVGKPQSQEAYGCMLRKDDPQFKKLMDDTIAQVQTSGEAEKWFDKWFKNPIPPKNLNMNFELSDEMKALFKEPNDKALN | 544 | 544 | 0.05 | 0.25
arabinose BP D257C Fluorescein (conjugate, UniProt P02924 24-329, looked up, variant D257C, fluorescein label) L-arabinose-binding …: ENLKLGFLVKQPEEPWFQTEWKFADKAGKDLGFEVIKIAVPDGEKTLNAIDSLAASGAKGFVICTPDPKLGSAIVAKARGYDMKVIAVDDQFVNAKGKPMDTVPLVMMAATKIGERQGQELYKEMQKRGWDVKESAVMAITANELDTARRRTTGSMDALKAAGFPEKQIYQVPTKSNDIPGAFDAANSMLVQHPEVKHWLIVGMNDSTVLGGVRATEGQGFKAADIIGIGINGVDAVSELSKAQATGFYGSLLPSPCVHGYKSSEMLYNWVAKDVEPPKFTEVTDVVLITRDNFKEELEKKGLGGK | 519 | 520 | 0.03 | 1.17
